tested on: FRET signal of digested Oligo D; test: FRET fluorescence quenching following reaction completion; conditions: not given

Row | SMILES | quenching of FRET signal after reaction completion
1 | O=C(NCc1ccc(F)cc1)C1C(=O)N(O)C(=O)c2cc(C(F)(F)F)ccc21 (stereo not drawn) [Compound 112, 7-trifluoromethyl-N-(4-fluorobenzyl)-2-hydroxy-1,3-dioxo-4H-isoquinoline-4-carboxamide] | not quenched
2 | CC(C)=CCOc1ccc(/C=C/C(=O)c2ccc(OCC=C(C)C)cc2OCC(=O)O)cc1 [Compound 68, Sofalcone, reference compound] | not quenched
3 | CC(C)=CCc1c2c(c3occ(-c4ccc(O)c(O)c4)c(=O)c3c1O)C=CC(C)(C)O2 [Compound 69, Pomiferin] | not quenched
4 | CC(C)=CCc1c(O)ccc(C(=O)/C=C/c2ccc(O)cc2)c1O [Compound 77, Isobavachalcone] | not quenched

same assay, conditions: 500 μM added after digestion of Oligo D by RNase A or NSP14/10

Row | SMILES | quenching of FRET signal after reaction completion
5 | O=C1Cc2ccccc2C(=O)N1O [Compound 13, 2-Hydroxyisoquinoline-1,3(2H,4H)-dione] | not quenched

same assay, conditions: 250 M (so in the source) added after digestion of Oligo D by RNase A

Row | SMILES | quenching of FRET signal after reaction completion
6 | Cc1c(S(=O)(=O)[O-])oc2c1C(=O)C(=O)c1c-2ccc2c1CCCC2(C)C.[Na+] [Compound 60, Tanshinone IIA sulfonate] | not quenched
7 | O=C(c1ccccc1)c1ccc2ccc(/C=C/c3ccc(O)c(O)c3)nc2c1O [Compound 96, 7-benzoyl-2-(3,4-dihydroxyvinyl)-8-hydroxyquinoline] | not quenched
8 | Oc1ccc(CC2NCCc3cc(O)c(O)cc32)cc1O (stereo not drawn) [Compound 54, Tetrahydropapaveroline] | not quenched
9 | Cc1ccc2ccc(C(=O)O)c(O)c2n1 [Compound 78, 2-methyl-8-hydroxyquinoline-7-carboxylic acid] | not quenched
